The record followed here is publication PMC8489136, “LncRNA MALAT1 was regulated by HPV16 E7 independently of pRB in cervical cancer cells”.

Construct, isoform or probe ends are uncertain for at least one entry. At least one result comes from cells or an extract, where the contact may be indirect. For some of these results: Tags and fusion partners may be left off the protein sequences shown.

The target in data set [1] is T1, myc-E7ΔN (Human papillomavirus type 16) (UniProt P03129).
T1 sequence (looked up): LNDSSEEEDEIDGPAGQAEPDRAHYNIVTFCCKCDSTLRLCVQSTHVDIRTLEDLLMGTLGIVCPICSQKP
The data set can be described thus: EMSA. The conditions noted are these: C33A nuclear extract; 5'-biotin; EMSA buffer, pH and temperature not given; protein in an extract; residues 28-98; protein details: myc; label: biotin. In general terms: A gel shift assay detects complexes by their altered migration in electrophoresis.

For data set [2], the target named is myc-E7FL (Human papillomavirus type 16) (UniProt P03129). Nature of the data set: EMSA. The conditions noted are these: C33A nuclear extract; 5'-biotin; EMSA buffer, pH and temperature not given; protein in an extract; residues 1-98; protein details: myc; label: biotin.

“AGCTGCCACCCCGCCCCCATGCCAT (double strand) [MALAT1 promoter probe2]”: the binding result in data set [1] and in data set [2] was “binds” in each case.

For the sequence “CAGGCGTTAGGGCGGGGCGCGCGTGC (double strand) [MALAT1 promoter probe1]”, the binding result in data set [1] and in data set [2] was “binds” in each case.
